Anti-infective test results gathered from many reports (values: NIAID ChemDB through PubChem).

Common to all: host cell toxicity; cell line: MT-4; read-out: CC50

CCn is the concentration with n% toxicity to the cells. Rows are shuffled and stem from different studies.

CCN(CC)C(=O)Oc1nsnc1-c1c(Cl)cccc1Cl ; result: 326 µM
Cc1cn([C@H]2C=C[C@@H](CO)O2)c(=O)[nH]c1=O ; result: 43.2 µM
NC(N)=NCCC[C@H](NC(=O)[C@@H](Cc1ccc(O)cc1)NC(=O)[C@H](Cc1ccc2ccccc2c1)NC(=O)[C@H](CCCN=C(N)N)NC(=O)[C@@H](N)CCCN=C(N)N)C(=O)O ; read by: MTT ; result: >100 µM
CCn1cc(C(=O)O)c(=O)c2cc(F)c(N3CCN(CC(=O)OC[C@@H]4CC[C@H](n5cnc6c(=O)[nH]cnc65)O4)CC3)cc21 ; read by: MTT ; result: 560 µM
COc1ccc(/C=C/CSc2nc(C(C)c3c(F)cccc3F)c(C)c(=O)[nH]2)cc1 ; result: >11.7 µM
CCCCN(CC)C(=O)Oc1nsnc1-c1c(Cl)cccc1Cl ; result: 44.3 µM
COc1ccc(/C=C/Sc2nc(Cc3c(Cl)cccc3Cl)c(C)c(=O)[nH]2)cc1 ; result: >57.74 µM
CCOP(=O)(OCC)C(F)(F)C[C@@]1(O)CO[C@@H](n2ccc(=O)[nH]c2=O)C1 ; read by: MTT ; result: >100 µM
CCN1c2ccccc2Sc2ccccc21 ; result: >500 µg/mL
CNC(=O)CSP(=O)(NCC(=O)OC)OC[C@H]1O[C@@H](n2cc(C)c(=O)[nH]c2=O)C[C@@H]1F ; result: 2500 µM
c1cc(CCNCCN2CCCCC2)ccc1CCNCCN1CCCCC1 ; read by: MTT ; result: 129 µM
O=c1[nH]cnc2c1ncn2[C@H]1CC[C@@H](CO)O1 ; read by: MTT ; result: >1000 µM
Cc1cn([C@H]2C[C@H](N=[N+]=[N-])[C@@H](CO)O2)c(=O)[nH]c1=O ; read by: MTT ; result: 240 µM
Cc1cn([C@H]2C[C@H](F)[C@@H](CO)O2)c(=O)[nH]c1=O ; result: 62.5 µM
O=c1[nH]c(=O)n([C@H]2C[C@H](F)[C@@H](CO)O2)cc1F ; result: 50 µM
CC(C)=CCN1Cc2cc(Cl)c(Cl)c3[nH]c(=S)n(c23)C[C@@H]1C ; result: 45 µM
O=C(CN1CCN(c2cc3c(cc2F)c(=O)c(C(=O)O)cn3C2CC2)CC1)OC[C@@H]1CC[C@H](n2cnc3c(=O)[nH]cnc32)O1 ; read by: MTT ; result: 380 µM
CC(C)=CCN1Cc2cccc3[nH]c(=S)n(c23)C[C@@H]1C ; result: 550 µM
C=C[C@@]1(CO)CO[C@H](n2ccc(=O)[nH]c2=O)C1 ; result: >100 µg/mL
CCCCCCN(C)C(=O)Oc1nsnc1-c1c(Cl)cccc1Cl ; result: 32.7 µM
CNC(=O)CSP(=O)(NCC(=O)OC)OCCOCn1cnc2c(=O)[nH]c(N)nc21 ; result: >70 µM
CC(C)=CCN1Cc2cc(Cl)cc3[nH]c(=S)n(c23)C[C@H]1C ; result: 19 µM
CCN(CC)CC.CNC(=O)CSP(=O)(O)OC[C@H]1O[C@@H](n2cc(C)c(=O)[nH]c2=O)C[C@@H]1F ; result: >90 µM
Cc1cn([C@H]2C=C[C@@H](CO)O2)c(=O)[nH]c1=O ; result: 4 µM
CCc1c(Sc2ccccc2)n(COCc2ccccc2)c(=O)[nH]c1=O ; result: 30 µM
c1cc(CNCCN2CCOCC2)ccc1CNCCN1CCOCC1 ; read by: MTT ; result: 236.4 µM
Clc1ccc2c(c1)Nc1ccccc1S2 ; result: >500 µg/mL
O=c1ccn([C@H]2C[C@]3(CO2)CC(F)(F)P(=O)(O)O3)c(=O)[nH]1 ; read by: MTT ; result: >100 µM
c1cc(CNCCCN2CCOCC2)ccc1CNCCCN1CCCC1 ; read by: MTT ; result: >66.7 µM
C=C(C)CN1Cc2cc(Cl)cc3[nH]c(=O)n(c23)CC1C ; result: 17 µM
COC(=O)NCCCN1c2ccccc2Sc2ccc(Cl)cc21 ; result: >500 µg/mL
CCOP(=O)(OC[C@H]1O[C@@H](n2cc(C)c(=O)[nH]c2=O)C[C@@H]1F)SCC(=O)NC ; result: 2000 µM
Cc1c(Cc2c(F)cccc2F)nc(SCC#Cc2ccc([N+](=O)[O-])cc2)[nH]c1=O ; result: >58.55 µM
O=C(Cc1ccc(CC(=O)NCCN2CCOCC2)cc1)NCCN1CCOCC1 ; read by: MTT ; result: >299 µM
C[C@H](NC(=O)[C@H](Cc1ccc2ccccc2c1)NC(=O)[C@H](CCCN=C(N)N)NC(=O)[C@@H](N)CCCN=C(N)N)C(=O)N[C@@H](Cc1ccc(O)cc1)C(=O)N[C@@H](CCCN=C(N)N)C(=O)O ; read by: MTT ; result: >100 µM
c1cc(CNCCCN2CCOCC2)ccc1CNCCCN1CCOCC1 ; read by: MTT ; result: >320.1 µM
CN1c2ccccc2Sc2ccccc21 ; result: 11 µg/mL
CCc1c(Sc2cc(C)cc(C)c2)n(COCc2ccccc2)c(=O)[nH]c1=O ; result: 20 µM
CC(=O)NCCCN1c2ccccc2Sc2ccc(Cl)cc21 ; result: 402.5 µg/mL
NCCCC[C@@H](NC(=O)[C@H](Cc1ccc2ccccc2c1)NC(=O)[C@H](CCCN=C(N)N)NC(=O)[C@@H](N)CCCN=C(N)N)C(=O)N1CCC[C@H]1C(=O)N[C@@H](Cc1ccc(O)cc1)C(=O)N[C@@H](CCCN=C(N)N)C(=O)O ; read by: MTT ; result: >100 µM
c1cn(CCCNCCc2ccc(CCNCCCn3ccnc3)cc2)cn1 ; read by: MTT ; result: >328 µM
CCc1c(Cc2c(F)cccc2F)nc(SCc2ccc([N+](=O)[O-])cc2)[nH]c1=O ; result: >59.95 µM
Cc1cn([C@H]2C[C@H](N=[N+]=[N-])[C@@H](COP(=O)(O)C(=O)O)O2)c(=O)[nH]c1=O ; result: 161 µM
CCOP(=O)(OCC)C(F)(F)C[C@@]1(O)CO[C@@H](n2ccc(N)nc2=O)C1 ; read by: MTT ; result: 90 µM
CC(C)=CCN1[C@@H](C)Cn2c(=S)[nH]c3cccc(c32)[C@@H]1C ; result: 81 µM
Nc1ncnc2c1ncn2[C@@H]1O[C@@H]2[C@H](O)CO[C@]2(CO)[C@H]1O ; result: >100 µM
Cc1c(Cc2ccc(C#N)cc2)nc(SCC(=O)c2ccccc2)[nH]c1=O ; result: >67.2 µM
CN(C)C(=O)Oc1nsnc1-c1c(Cl)cccc1Cl ; result: 190 µM
CCOP(=O)(OCC)C(F)(F)C[C@@]1(O)CO[C@@H](n2cnc3c(Cl)nc(N)nc32)C1 ; read by: MTT ; result: >100 µM
CC(C)=CCN1[C@H](C)c2cccc3[nH]c(=S)n(c23)C[C@@H]1C ; result: 74 µM
C=C[C@@]1(CO)CO[C@@H](n2ccc(=O)[nH]c2=O)C1 ; result: >100 µg/mL
CNC(=O)CSP(=O)(NCC(=O)OC)OC[C@H]1O[C@@H](n2cc(C)c(=O)[nH]c2=O)C[C@@H]1N=[N+]=[N-] ; result: 0.1 µM
Cc1cn([C@H]2C[C@]3(CO2)CC(F)(F)P(=O)(O)O3)c(=O)[nH]c1=O ; read by: MTT ; result: 80 µM
Cc1cn([C@H]2C[C@H](N=[N+]=[N-])[C@@H](CO)O2)c(=O)[nH]c1=O ; result: 26.5 µM
Nc1ncnc2c1ncn2CCOCP(=O)(O)O ; read by: MTT ; result: >100 µM
CCC(=CCN1Cc2c(C)ccc3[nH]c(=S)n(c23)C[C@@H]1C)CC ; result: 80 µM
COc1ccc(COCCSc2nc(C(C)c3c(F)cccc3F)c(C)c(=O)[nH]2)cc1 ; result: 30.72 µM

Repeating the first 8 entries:

CCN(CC)C(=O)Oc1nsnc1-c1c(Cl)cccc1Cl ; result: 326 µM
Cc1cn([C@H]2C=C[C@@H](CO)O2)c(=O)[nH]c1=O ; result: 43.2 µM
NC(N)=NCCC[C@H](NC(=O)[C@@H](Cc1ccc(O)cc1)NC(=O)[C@H](Cc1ccc2ccccc2c1)NC(=O)[C@H](CCCN=C(N)N)NC(=O)[C@@H](N)CCCN=C(N)N)C(=O)O ; read by: MTT ; result: >100 µM
CCn1cc(C(=O)O)c(=O)c2cc(F)c(N3CCN(CC(=O)OC[C@@H]4CC[C@H](n5cnc6c(=O)[nH]cnc65)O4)CC3)cc21 ; read by: MTT ; result: 560 µM
COc1ccc(/C=C/CSc2nc(C(C)c3c(F)cccc3F)c(C)c(=O)[nH]2)cc1 ; result: >11.7 µM
CCCCN(CC)C(=O)Oc1nsnc1-c1c(Cl)cccc1Cl ; result: 44.3 µM
COc1ccc(/C=C/Sc2nc(Cc3c(Cl)cccc3Cl)c(C)c(=O)[nH]2)cc1 ; result: >57.74 µM
CCOP(=O)(OCC)C(F)(F)C[C@@]1(O)CO[C@@H](n2ccc(=O)[nH]c2=O)C1 ; read by: MTT ; result: >100 µM